## Sequence variants of PSTVd loop 6 after infection

Region: loop 6 of PSTVd (intermediate strain), upper and lower strand joined, each 5' to 3', the first 5 letters being the upper strand, closing pairs included. Wild type: UGACCGCGAG. Varied positions (N): UNNNCGNNNG.

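Three N. benthamiana plants were inoculated with the whole mutant pool. Progeny were sequenced from the inoculated region (day 5), the margin of the inoculated leaf (day 10) and systemic leaves (day 12).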

Values are reads per thousand in the sample; higher means more abundant, 0 means not found. Each value is the mean of three plants. "Pool" is the share in the plasmid pool used as inoculum, on the same scale. The inoculated region was read from the minus strand, the other sites from the plus strand. IR is the inoculated region, LM the leaf margin, Sys the systemic leaves. Samples held 36,220 to 57,551 reads, so the smallest values rest on one or two reads. For reference, wild type rose from 20.7 per thousand in the pool to 195, 198, 203 (inoculated region), 629, 591, 734 (leaf margin) and 942, 870, 868 (systemic leaves). The authors trace changes outside the varied positions to PCR and sequencing errors or to mutation in the plant; presence does not show that a variant is infectious alone.

| # | sequence | pool | IR | LM | Sys |
|---|---|---|---|---|---|
| 1 | UAUCCGGGGG | 0.131 | 0.125 | 0.00773 | 0 |
| 2 | UCCGCGAAUG | 0.353 | 0.0710 | 0.0261 | 0 |
| 3 | UAGGCGAUCG | 0.510 | 0.119 | 0.00920 | 0 |
| 4 | UAGACGGUGG | 0.196 | 0.101 | 0.0155 | 0 |
| 5 | UUGACGAGCG | 0.301 | 0.0843 | 0.0666 | 0.0136 |
| 6 | UUUUCGUAAG | 0.118 | 0.0776 | 0 | 0 |
| 7 | UCUACGAAUG | 0.222 | 0.107 | 0.0353 | 0 |
| 8 | UCUUCGACCG | 0.196 | 0.0701 | 0.00920 | 0 |
| 9 | UGAUCGGCAG | 0.261 | 0.628 | 0.0760 | 0 |
| 10 | UGCCCGCGGG | 0.248 | 0.118 | 0.0155 | 0 |
| 11 | UUCCCGGCUG | 0.105 | 0.0472 | 0 | 0 |
| 12 | UGCGCGACGG | 0.157 | 0.0946 | 0.00773 | 0 |
| 13 | UGCGCGGGCG | 0.144 | 0.0646 | 0 | 0 |
| 14 | UUCGCGUGCG | 0.327 | 0.143 | 0 | 0 |
| 15 | UAUUCGGUCG | 0.536 | 0.125 | 0 | 0 |
| 16 | UCACCGCACG | 0.170 | 0.663 | 0.0971 | 0 |
| 17 | UGGUCGAGGG | 0.222 | 0.0708 | 0 | 0 |
| 18 | UCAGCGGCAG | 0.170 | 0.0765 | 0 | 0 |
| 19 | UGACCGGCGG | 0.261 | 0.203 | 0.306 | 0.0607 |
| 20 | UACUCGUCAG | 0.196 | 0.0840 | 0 | 0 |
| 21 | UCCCCGCAUG | 0.261 | 0.124 | 0.00841 | 0.00684 |
| 22 | UGCACGCAUG | 0.209 | 0.0892 | 0.0155 | 0 |
| 23 | UGAGCGGUUG | 0.314 | 0.132 | 0 | 0.0535 |
| 24 | UUGUCGCUUG | 0.288 | 0.0893 | 0 | 0 |
| 25 | UGAACGUCUG | 0.248 | 0.179 | 0.0401 | 0 |
| 26 | UUGGCGCUUG | 0.497 | 0.102 | 0.00773 | 0 |
| 27 | UAACCGCGCG | 0.170 | 0.669 | 0.0859 | 0.0196 |
| 28 | UCCCCGGGCG | 0.157 | 0.0949 | 0 | 0 |
| 29 | UCGGCGACCG | 0.222 | 0.0714 | 0 | 0 |
| 30 | UCCACGGAUG | 0.235 | 0.107 | 0.0184 | 0 |
| 31 | UUUCCGGCCG | 0.288 | 0.119 | 0.00773 | 0 |
| 32 | UAGUCGUUAG | 0.301 | 0.113 | 0.00773 | 0 |
| 33 | UAAACGUCGG | 0.157 | 0.101 | 0 | 0 |
| 34 | UACGCGCCAG | 0.0915 | 0.0895 | 0 | 0 |
| 35 | UCGACGAGCG | 0.183 | 0.114 | 0 | 0 |
| 36 | UAGACGGUCG | 0.222 | 0.0943 | 0.00773 | 0 |
| 37 | UGGCCGGUGG | 0.170 | 0.132 | 0.0176 | 0 |
| 38 | UCGACGGUAG | 0.157 | 0.136 | 0 | 0 |
| 39 | UUUACGCCCG | 0.340 | 0.119 | 0.00920 | 0 |
| 40 | UUAUCGCCAG | 0.275 | 0.120 | 0 | 0 |
| 41 | UUCGCGAGUG | 0.301 | 0.0962 | 0 | 0 |

The opening 3 entries, copied out:

{"sequence": "UAUCCGGGGG", "pool": "0.131", "IR": 0.125, "LM": 0.00773, "Sys": 0}
{"sequence": "UCCGCGAAUG", "pool": "0.353", "IR": 0.0710, "LM": 0.0261, "Sys": 0}
{"sequence": "UAGGCGAUCG", "pool": "0.510", "IR": 0.119, "LM": 0.00920, "Sys": 0}

Reference: Wu et al. 2024, doi:10.1371/journal.ppat.1012142.